A mixed list of measured activities; the numbers were collected in NIAID ChemDB.

Shared fields: host cell toxicity; cell line: 1A2; endpoint: CC50

CCn is the concentration with n% toxicity to the cells. Rows are shuffled and stem from different studies.

SMILES,method,result
CC(C)=CC(=O)C[C@@H](C)[C@H]1CC[C@@]2(C)[C@@H]3CC[C@H]4C(C)(C)[C@@H](O)C[C@H](O)[C@@]45C[C@@]35CC[C@]12C,XTT,33.4 µg/mL
Fc1cccc(F)c1C1SCc2nc3ccccc3n21,XTT,56.8 µM
O=c1c2cc(O)c(O)cc2oc2cc(O)cc(O)c12,XTT / absorbance,>480.4 µM
C/C(=C\CC[C@@H](C)C1CC[C@@]2(C)[C@@H]3CC[C@H]4C(C)(C)C(=O)CC[C@]4(C)[C@@]3(O)CC[C@]12C)C(=O)O,XTT / absorbance,37.56 µM
COc1cc(-c2cc(=O)c3c(O)cc(O)cc3o2)c(OC)c(OC)c1OC,XTT,>125 µg/mL
COc1c2c(c3c(c1C(=O)c1ccccc1)OC(C)(C)C=C3)OC(C)(C)C=C2,XTT / absorbance,29.59 µM
NC(=O)NC1NC(=O)NC1=O,XTT,>125 µg/mL
C/C(=C\C=C\[C@@H](C)[C@H]1CC[C@@]2(C)C3CC[C@H]4C(C)(C)C(=O)CC[C@]4(C)[C@@]3(O)[C@@H](O)C[C@]12C)C(=O)O,XTT / absorbance,33.16 µM
C=C(CC[C@@H](C)[C@H]1CC[C@@]2(C)C3CCC4C(C)(C)[C@@H](OC(=O)CCCCCCCCCCCCCCC)CC[C@@]45C[C@@]35CC[C@]12C)C(C)(C)O,XTT,>125 µg/mL
COc1c2c(c(C(=O)c3cccc(O)c3)c3c1C=CC(C)(C)O3)OC(C)(C)C=C2,XTT / absorbance,31.06 µM
CC(=O)O[C@@H](/C=C(\C)C(=O)O)C[C@@H](C)[C@H]1CC[C@@]2(C)C3CC[C@H]4C(C)(C)C(=O)CC[C@]4(C)C3=CC[C@]12C,XTT / absorbance,30.09 µM
C[C@@]12CCC[C@@](C)(C(=O)O)C1CC[C@@]13C[C@H](CCC12)[C@@](O)(CO)C3,XTT,>125 µg/mL
O=c1c(OC2OC(CO)C(O)C(O)C2O)c(-c2ccc(O)c(O)c2)oc2cc(O)cc(O)c12,XTT,>269 µM
Nc1ccn([C@H]2CC[C@@H](CO)O2)c(=O)n1,XTT,>10 µM
COc1c(OC)c(OC)c(-c2cc(=O)c3c(O)cc(O)cc3o2)c(OC)c1OC,XTT,>125 µg/mL
Cc1c(Sc2ccccc2)n(COCCO)c(=O)[nH]c1=O,XTT,>0.7 µM
O=C1c2c(O)cc(O)cc2O[C@@H](c2ccc(O)cc2)[C@@H]1c1c(O)cc(O)c2c(=O)cc(-c3ccc(O)c(O)c3)oc12,XTT / absorbance,179 µM
COc1ccc(-c2oc3cc(O)cc(O)c3c(=O)c2OC)cc1,XTT,5.2 µg/mL
COc1cc(O)cc(OC)c1C(=O)c1cc(O)cc(O)c1,XTT / absorbance,>430 µM
O=C(O)/C=C/c1ccc(O)cc1,XTT,>762 µM
CC1(C)C=Cc2c(O)c(C(=O)c3ccccc3)c3c(c2O1)C=CC(C)(C)O3,XTT / absorbance,123 µM
O=C1c2c(O)cc(O)cc2O[C@H](c2ccc(O)cc2)[C@H]1c1c(O)cc(O)c2c(=O)cc(-c3ccc(O)c(O)c3)oc12,XTT / absorbance,96.27 µM
COc1c(O)cc(O)c2c(=O)c3cc(O)ccc3oc12,XTT / absorbance,73.22 µM
CC(=O)O[C@H]1CC[C@]2(C)C3CC=C4C5[C@@H](C)[C@H](C)CC[C@]5(C(=O)O)CC[C@@]4(C)[C@]3(C)CC[C@H]2C1(C)C,XTT,39.89 µM
C=C1C(=O)[C@@]23CCC4[C@@](C)(CCC[C@@]4(C)C(=O)O)C2CC[C@H]1C3,XTT,<3.9 µg/mL
CC(C)=CCC[C@@H](C)[C@@H]1CC[C@]2(C)C3=C(CC[C@@]12C)[C@@]1(C)CC[C@H](O)C(C)(C)[C@@H]1CC3,XTT / absorbance,246 µM
O=C(/C=C/c1ccc(O)cc1)O[C@H]1[C@@H]2C=CO[C@@H](OC3OC(CO)C(O)C(O)C3O)[C@@H]2[C@@]2(CO)O[C@@H]12,XTT,>246 µM
C=C(CC[C@@H](C)[C@H]1CC[C@@]2(C)[C@@H]3CC[C@H]4[C@](C)(C(=O)O)[C@@H](O)CC(=O)[C@@]45C[C@@]35CC[C@]12C)C(C)C,XTT,18.5 µg/mL
COc1c(O)ccc2c(=O)c3c(O)cccc3oc12,XTT / absorbance,106 µM
CC(=O)O[C@H]1CC[C@]2(C)C3CC=C4C5[C@](C(=O)O)(CC[C@@H](C)[C@@]5(C)O)CC[C@@]4(C)[C@]3(C)CC[C@H]2C1(C)C,XTT,85.5 µM

For reference, 4 entries again:

SMILES | method | result
C=C(CC[C@@H](C)[C@H]1CC[C@@]2(C)[C@@H]3CC[C@H]4[C@](C)(C(=O)O)[C@@H](O)CC(=O)[C@@]45C[C@@]35CC[C@]12C)C(C)C | XTT | 18.5 µg/mL
CC(C)=CCC[C@@H](C)[C@@H]1CC[C@]2(C)C3=C(CC[C@@]12C)[C@@]1(C)CC[C@H](O)C(C)(C)[C@@H]1CC3 | XTT / absorbance | 246 µM
Fc1cccc(F)c1C1SCc2nc3ccccc3n21 | XTT | 56.8 µM
CC(=O)O[C@H]1CC[C@]2(C)C3CC=C4C5[C@](C(=O)O)(CC[C@@H](C)[C@@]5(C)O)CC[C@@]4(C)[C@]3(C)CC[C@H]2C1(C)C | XTT | 85.5 µM